Laboratory results published in patent publication US20240182848A1, “SULFAMETHOXAZOLE-DEGRADING PSEUDOMONAS SILESIENSIS STRAIN, AND APPLICATION THEREOF” (CHINESE RESEARCH ACADEMY OF ENVIRONMENTAL SCIENCES, priority 2021, published 2024).

Tested on: F6a strain
Test: Fate of SMX intermediate products during degradation by F6a strain (UPLC-QTOF-MS / HPLC/MS/MS)
Set-up: species or system Pseudomonas silesiensis
Settings: 10 mg/L SMX, R2A medium, absorption peaks followed up to 336 h

3-amino-5-carboxyl hydroxylamine [C4]
fate of intermediate product (mineralization) during SMX degradation: completely mineralized

Nc1ccc(S(=O)(=O)O)cc1 [C8, 4-aminobenzenesulfonic acid]
fate of intermediate product (mineralization) during SMX degradation: completely mineralized
